Patent US20250382354A1 (INSTITUTE FOR RESEARCH IN BIOMEDICINE IRB, published 2025)

What was measured:
Assay in all cases: protein ELISA
[1] = target: T1, SARS-CoV-2 SD1-RBD Omicron BA.4/BA.5 (SARS-CoV-2 Omicron BA.4/BA.5)
T1 construct: domain: SD1-RBD

[2] = target: T2, SARS-CoV-2 SD1-RBD Omicron BA.1 (SARS-CoV-2 Omicron BA.1)
T2 construct: domain: SD1-RBD

[3] = target: T3, SARS-CoV-2 SD1-RBD Omicron BA.2.75 (SARS-CoV-2 Omicron BA.2.75)
T3 construct: domain: SD1-RBD

B1: sd1.033 (antibody, V domains shown)
VH: QVQLVQSGAEVKKPGSSVKVSCKASGGVYSTYAVSWVRQAPGQGLEWIGGIIPMFGTANYAQNFQGRVTITADESTRTAYMEVSSLRSEDTAVYYCASPSAPTYYYDSSRYYSFDYWGQGTLVTVSS
VL: EIVLTQSPGTLSLSPGERATLSCRASQSVSSNFLAWFQQKPGQPPRLLIYGASSRATGIPDRFSGSGSGTDFTLTISRLVPEDFAVYFCQQYGSSRYSFGQGTKLEIK
In the case of B1, the EC50 [1] is reported as 0.32 mg/L and the EC50 [2] is reported as 0.654 mg/L.

B2: sd1.034 (antibody, V domains shown)
VH: EVQLVESGGGVVQPGRSLRLSCAASGFSFSNYGMHWVRQAPGKGLEWVAVISYDGSHKSFADSVKGRFTISRDNSKNTLNLQMNSLRREDTAVYYCATDQGGSLGYWGQGTLVTVSS
VL: QSALTQPASVSGSPGQSITISCTGTSGDVGGYNYVSWYQHHPGKAPKLMIYDVSNRPSGVSNRFSGSKSGNTASLTISGLQAEDEADYYCSSYTSTSTSWVFGGGTKLTVL
B2 was tested, and the EC50 [3] was 0.0359 mg/L, the EC50 [1] was 0.0359 mg/L and the EC50 [2] was 0.0225 mg/L.

B3: sd1.039 (antibody, V domains shown)
VH: EVQLVQSGAEVKKPGESLKISCKASGYSFPTYWIGWVRQMPGKGLEWMGIIYPGDSDTRYSPSFQGQVTISADKSISTAYLQWSSLKASDTAIYYCARYGDSHIDSWGQGTLVTVSS
VL: QSVLTQPRSASASLGASVTLNCTLSSGYSKYKVEWYQQRPGKGPRFLMRVGAGGIVGSKGDGIPDRFSVLGSGLNRYLIIKNIQQEDESDYHCGADHGSGSNFAYVVFGGGTKLTVL
For B3, the EC50 [3] was 0.0464 mg/L, the EC50 [1] was 0.0431 mg/L and the EC50 [2] was 0.0245 mg/L.

B4: sd1.040 (antibody, V domains shown)
VH: QVQLVQSGAEVKKPGASVKVSCKASGYTFTSFYIHWVRQAPGQGLEWMGIIDPSGGSTSYPQKFQGRVTMTRDTSTSTVYMDLSSLRSEDTAVYYCTRDGSAGDNSWFDPWGQGTLVTVSS
VL: DIVMTQSPDSLAVSLGERATINCKSSRNVLYSSNNKNYLAWYQQKPGQPPKLLIYWASARESGVPDRFSGSGSGTDFTLTISSLQAEDVAVYYCQQYYNTPYTFGQGTKLEIK
With B4 the EC50 [3] was 0.0487 mg/L, the EC50 [1] was 0.0384 mg/L and the EC50 [2] was 0.021 mg/L.

B5: sd1.100 (antibody, V domains shown)
VH: QVQLQESGPGLVKPSQTLSLTCSVSGDSITSGNYYWSWIRQHPGKGLEWIGNIFHTGNTYYNPSLKSRVTISIDTSKNQFSLKLSSVTAADTALYYCARDHKRLEGDWFDPWGQGSLVTVSS
VL: QSVLTQPPSASGTPGQRVTISCSGSSSNIGSNTVNWYLQLPGTAPKLLIYSNNLRPSGVPDRFSGSKSGTSASLAISGLQSGDEADYFCAAFDDSLSGPVFGGGTKLTVL
Binder B5 has an EC50 [3] of 0.187 mg/L, an EC50 [1] of 0.134 mg/L and an EC50 [2] of 0.15 mg/L.

B6: sd1.102 (antibody, V domains shown)
VH: QVQLVQSGAEVKKPGSSVKVSCKASGGTFSSYAISWVRQAPGQGLEWMGGIIPLYGTANYAQKFQGRVTITADESTSTTYMELSSLTSEDTAVYYCVRFRGGDYYYYYGMDVWGQGTTVTVSS
VL: EIVMTQSPATLSVSPGESATLSCRASQTVSTNLAWYQQKPGQAPRLLIFGASTRATGIPARFSGSGSGTEFTLSISSLQSEDFAVYYCHQYNSRRTFGQGTKLEIK
B6 gave an EC50 [3] of 2.93 mg/L and an EC50 [1] of 4.91 mg/L.

B7: sd1.103 (antibody, V domains shown)
VH: QVQLVQSGAEVKKPGSSMKVSCKASGGTLNNYAIIWVRQAPGQGLEWMGGIIPMFGAANYAQNFQGRVTITADESTRTAYLELSSLRSEDTAMYYCARVVIPYLGAHYYHYGVDVWGQGTTVTVSS
VL: EIVLTQSPGTLSLSPGERATLSCRASQSVTSNYLAWYQQKPGQAPRLLIYGASSRAAGIPDRFNGSGSGTDFTLTISRLEPEDFAVYYCQQYGSSRYTFGQGTKLEIK
B7 was tested, and the EC50 [3] was 1.65 mg/L, the EC50 [1] was 2.83 mg/L and the EC50 [2] was 8.28 mg/L.

B8: sd1.108 (antibody, V domains shown)
VH: QVQLVQSGAEVKKPGASVKVSCKASGYTFTSYYIHWVRQTPGQGLEWMGIINPRGGSTSYPQKFQGRVSMTRDTSTSTVFMELSSLRSDDTAVYYCAREHREDTAMDNQPSDSWGQGTLVTVSS
VL: DIVMTQSPDSLSVSLGERATINCKSSRSVFYSSNNKSYLAWYQQKPGQPPKLLIYWASTRESGVRDRFSGSGSGTDFTLTISSLQAEDVAVYYCQQYYNTPYTFGQGTKLEIK
Binder B8 has an EC50 [3] of 0.0459 mg/L, an EC50 [1] of 0.0173 mg/L and an EC50 [2] of 0.0258 mg/L.

B9: sd1.127 (antibody, V domains shown)
VH: EVQLVESGGALVKPGGSLTLSCVASGFTFSHAWMTWVRQAPGKGLEWVGRIKTKTEGGTIDYAAPLRGRFTISRDDSKNTLYLRMNSLKIEDTAKYYCTTHSSPDYWGQGTLVTVSS
VL: DIQMTQSPSSLSASIGDRVTITCRASQGIGNSLLWYQQKRGKVPKLLIYAASTLQSGVPSRFSGSGSGTDFTLTISSLQPEDVATYYCQRYNSAPLTFGGGTKVEIK
B9 gave an EC50 [3] of 0.0195 mg/L, an EC50 [1] of 0.00741 mg/L and an EC50 [2] of 0.0112 mg/L.

B10: sd1.129 (antibody, V domains shown)
VH: QVQLVQSGAEVKRPGSSVKVSCKASGGAFSNYAISWVRQAPGQGLEWMGGIIPIFGTTNYAQRFQGRVTISADESTGTAYMELSSLRFADTAIYYCARADAYSGSYYPSANWFDPWGQGTLVTVSS
VL: EIVLTQSPATLSLSPGERATLSCRASQSVSNYLAWYQQKPGQAPRLLIYDASNRATGIPARFSGSGSGTDFTLTISSLEPEDFAVYYCQQRQNWPPGWTFGQGTKVEIK
With B10 the EC50 [3] was 5.1 mg/L, the EC50 [1] was 2.79 mg/L and the EC50 [2] was 2 mg/L.

B11: sd1.132 (antibody, V domains shown)
VH: QVQLVQSGTEVKKPGSSVKVSCKASGGTFSSYAISWVRQAPGQGLEWMGGIIPMFGAPNYAQKVQGRVTITADESTSTAYMELSSLRSEDTAVYYCARMEYSNSPGRGGYYFYSNGMDVWGQGTTVTVSS
VL: EIVLTQSPATLSLSPGERATLSCRASQSVSTYLAWLQQKPGQAPRLLMYDASNRASGIPARFSGSGSGTEFTLTISSLEPEDFAVYYCQQRTYWPLTFGGGTKVEIK
Binder B11 has an EC50 [1] of 3.75 mg/L.

B12: sd1.150 (antibody, V domains shown)
V domain 1: EVQLVESGGGVVQPGRSLRLSCAASGFTFSSHGMHWVRQAPGRGLEWVAVISFDGRNKFYVDSVKGRFTISRDNSKNTLYLHMNSLRAADTAVYYCAKDHDPDGSGSYFSNWFDAWGQGTLVTVSS
V domain 2: SYELTQPPSVSVSPGQTASITCSGDKLGDKYAYWYRQKPGQSPVVVIYQDNKRPSGIPERFSGSNSGNTATLTISGTQAMDEADYYCQAWDTYSGVFGTGTQVTVL
Work on B12 yielded an EC50 [3] of 0.256 mg/L, an EC50 [1] of 0.732 mg/L and an EC50 [2] of 1.24 mg/L.

B13: sd1.151 (antibody, V domains shown)
VH: EVQLVESGGGLVKPGGSLRLSCAVSGFTFSNAWMTWVRQAPGKGLEWVGRIKTKPEGGTTDYATPVKGRFTISRDDSIDTLYLQMNSLKTEDTAVYYCSTFSSPDHWGQGTLVTVSS
VL: DIVMTQSPDSLAVSLGERATINCKSSQSVFHSSNNKNYLIWYQHKPGQPPKLLISWASTRESGVPDRFSGSGSGTDFTLTISSLQAEDVAVYYCHQYYSTPFTFGPGTKVDIK
In the case of B13, the EC50 [3] is reported as 0.0663 mg/L, the EC50 [1] is reported as 0.0183 mg/L and the EC50 [2] is reported as 0.0258 mg/L.

B14: rbd.031 (antibody, V domains shown)
VH: EVQLVESGGGVVQPGRSLRLSCAASGFTFKTYGMHWVRQAPGKGLEWVAVISYEGSNEYYAESVKGRFTISRDNSKNTLYLHMNSLRAEDTAVYYCAKGEYYYHSSTYYYLDYWGRGTLVTVSS
VL: DIQMTQSPSTLSASVGDRVTITCRASQSISSWLAWYQQKPGKAPKVLIYDASSLQSGVPLRFSGSGSGTEFTLTISSLQPDDFATYYCQQYDTYWTFGQGTKVEIK
For B14, the EC50 [3] was 0.0486 mg/L, the EC50 [1] was 0.0309 mg/L and the EC50 [2] was 0.0252 mg/L.

B15: rbd.035 (antibody, V domains shown)
VH: EVQLLESGGGLIEPGGSLRLSCAASGFPFNTFAMTWVRQPPGKGLEWVATISSRGDYTFYADFVKGRFSISRDNANNALWLDMSGLRAEDTALYYCAKGESGYDLYLYGLDLWGQGTTVTVSS
VL: DIQMTQSPSSLSASVGDGVTITCRASQNINNYLSWYQKKAGKAPKLLIYGASTLHSGVPSRFSGSGSGTDFTLTISSLQPEDFASYYCQQNSPTPPWTFGQGTKVEIK
With B15 the EC50 [1] was 0.0461 mg/L.

B16: rbd.038 (antibody, V domains shown)
VH: QVQLVQSGAEVKKPGASVKVSCKASGYTFSGYYMHWVRQAPGQGLEWVGWISPTSGGTKYAQKFQGRVTMTRDTSITTVYMELNRLRSDDTAVYYCAREPFPYCTSDICHSNYFYYYAMDVWGQGTTVTVSS
VL: QSALTQPPSASGSPGQSVTISCTGSSSDLGDHNYVSWYQQHPGKAPKVMIYEVSKRPSGVPDRFSGSKSGNTASLTVSGLQAEDEADYYCSSYAGSLYVFGTGTKVTVL
Binder B16 has an EC50 [3] of 0.124 mg/L and an EC50 [1] of 0.154 mg/L.

B17: rbd.045 (antibody, V domains shown)
VH: QVQLQESGPGLVKPSETLSLTCTVSGGAFRSFFWTWIRQPPGKGLEWIGNIYYSGSTNYNPSLKSRVTISQDMSENQFSLKLSSVTAADTAVYYCARSQWLRGNFDHWGQGILVTVSS
VL: NFMLTQPHSVSESPGKTVTISCTATSGYIASNYVQWYQQRPGSAPTTVIYEDNQRPSGVPDRFSGSIDSSSNSASLTISGLKPEDEADYYCQSFDTAYAVFGGGTQLTVL
Work on B17 yielded an EC50 [3] of 0.22 mg/L and an EC50 [1] of 0.065 mg/L.

B18: rbd.046 (antibody, V domains shown)
VH: EVQLVESGGGVVQPGRSLRLSCAASGFTFSHYGMHWVRQAPGKGLEWVAVISYDGSNKYYADSVKGRFTISRDNSKSTLYLQMNSLRAEDTAVYYCAKGEWYYDIFTGYYPYWGQGTLVTVSS
VL: not shown
B18 showed an EC50 [3] of 0.0661 mg/L, an EC50 [1] of 0.0874 mg/L and an EC50 [2] of 0.314 mg/L.

B19: rbd.106 (antibody, V domains shown)
VH: EVQLVQSGAEVKKPGESLKISCKGSGYSFYNHWIAWVRQMPGKGLEWMGIIYPYDSDTRYSPSFQGQVTISADKSITTAYLQWSSLKASDTAIYYCARRSDYGEFGGHSDYWGQGTLVTVSS
VL: QSVLTQPPSASGTPGQRVSISCSGSSSNIGSNSVNWYQQFPGTAPKLLMFSSYQRPSGVPDRFSGSKSGTSASLAISGLQSEDEADYYCAAWDDSLNGVVFGGGTKLTVL
B19 was tested, and the EC50 [3] was 0.0541 mg/L, the EC50 [1] was 0.0308 mg/L and the EC50 [2] was 0.0282 mg/L.

B20: rbd.141 (antibody, V domains shown)
VH: EVQLVESGGGVVQPGRSLRLSCAASGFTFSSYGMHWVRQAPGKGLEWVAVISYDGKIKYYADSVEGRFTISRDNSKNALYLQMNSLRAEDTAVYYCAKYGIVTSFGVVPPYDMDVWGQGTTVTVSS
VL: DVVMTQSPLSLPVTLGQPASISCRSSQSLVYSDGNTFLNWFQQRPGQSPRRLIYKVSDRDSGVPDRFSGSGSGTDFTLKISRVEAEDVGVYYCMQGTNWPPTFGQGTKVEIK
In the case of B20, the EC50 [3] is reported as 0.0153 mg/L and the EC50 [1] is reported as 0.0197 mg/L.
